Here are results for 5 compounds from PMC4999853, “Chloroquine Analog Interaction with C2- and Iota-Toxin in Vitro and in Living Cells” (2016).

Sequences of proteins named here, by UniProt entry; tags and fusion partners are left off. Residues count along the entry.
UniProt O86171, 182-721 limits assumed: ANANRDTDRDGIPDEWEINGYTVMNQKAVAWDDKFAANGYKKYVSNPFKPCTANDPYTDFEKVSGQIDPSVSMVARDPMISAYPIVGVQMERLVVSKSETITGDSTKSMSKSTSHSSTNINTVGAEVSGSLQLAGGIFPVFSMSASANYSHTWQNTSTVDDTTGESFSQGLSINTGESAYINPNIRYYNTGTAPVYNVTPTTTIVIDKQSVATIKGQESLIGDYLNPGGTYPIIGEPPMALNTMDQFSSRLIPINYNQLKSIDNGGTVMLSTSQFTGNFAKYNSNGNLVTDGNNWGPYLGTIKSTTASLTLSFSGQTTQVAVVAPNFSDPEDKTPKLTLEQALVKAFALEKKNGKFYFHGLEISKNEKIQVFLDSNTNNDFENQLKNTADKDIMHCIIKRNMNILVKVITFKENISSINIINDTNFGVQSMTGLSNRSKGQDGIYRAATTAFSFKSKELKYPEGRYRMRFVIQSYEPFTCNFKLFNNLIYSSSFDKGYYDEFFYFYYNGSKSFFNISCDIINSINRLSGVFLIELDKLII

Where “and” joins values, the source holds several entries; their conditions need not be identical. Equal entries are not always repeated. Where two headings read alike, the source gives them in different places.

Assay [1] has as its target T1, C2IIa channels (binding component C2II of C2-toxin) (Clostridium botulinum, UniProt O86171). Briefly: Titration of C2IIa channel conductance in lipid bilayer membranes. Particulars: for Stability constant K for block of C2II channels: DiPhPC/n-decane membranes, pH 6, about 10 ng/mL activated C2II, 20 °C, mean ± SD of at least three titrations; for Stability constant K for block of C2II channels / Kd: 150 mM KCl, 10 mM MES-KOH; for Kd: read-out: Half saturation constant KS, C2II channels, KS = 1/K, pH 6, 20 °C.

The target in assay [2] is Iota b channels (binding component of Iota-toxin) (Clostridium perfringens, UniProt Q46221). The assay is described as follows: Titration of Iota b channel conductance in lipid bilayer membranes. Particulars: for Stability constant K for block of Iota b channels: DiPhPC/n-decane membranes, pH 6, about 20 ng/mL Iota b, 20 °C, mean ± SD of at least three titrations.
Assay [3] concerns C2 toxin (C2I + C2IIa) on Vero cells. Briefly: pH-dependent membrane translocation of C2 toxin in intact Vero cells (cell rounding). The settings on record: Baf A1-treated Vero cells, 100 ng/mL C2I + 200 ng/mL C2IIa, pH 4.5 for 5 min, compound present during pulse and subsequent incubation (1 mM shown); vs toxin without compound.
Assay [4] relates to Iota b channels (binding component of Iota-toxin). The assay is described as follows: Titration of Iota b channel conductance in lipid bilayer membranes. The settings on record: KS Iota b / KS C2IIa.
In assay [5] the test system is Iota toxin (Iota a + Iota b) on Vero cells. The assay is described as follows: pH-dependent membrane translocation of Iota toxin in intact Vero cells (cell rounding). The settings on record: Baf A1-treated Vero cells, 100 ng/mL Ia + 200 ng/mL Ib, pH 4.0 for 15 min, 1 mM compound, further 2 h at 37 °C; vs toxin without compound.
Assay [6] concerns the target T1, C2IIa channels (binding component C2II of C2-toxin). The settings on record: given for comparison, ref Bachmeyer et al. (2003) [45], cited from earlier work.
Setting [7] is: read-out: Half saturation constant KS, Iota b channels, KS = 1/K, 150 mM KCl, 10 mM MES-KOH, pH 6, 20 °C.

With `Nc1ccnc2cc(Cl)ccc12`, in assay [1], the “Stability constant K for block of C2II channels” value is 1.5 ± 0.4 10^3 M^-1 and the Kd was found to be 700 µM. Moreover, in assay [2] (150 mM KCl, 10 mM MES-KOH), the “Stability constant K for block of Iota b channels” value is reported as 0.82 ± 0.21 10^3 M^-1. For the same compound, the Kd in assay [2] (setting [7]) amounted to 1200 µM.
`NCCCCNc1ccnc2cc(Cl)ccc12`: in assay [1], the “Stability constant K for block of C2II channels” value was 18.5 ± 2.5 10^3 M^-1 and the Kd stood at 54 µM. Further, in assay [2] (150 mM KCl, 10 mM MES-KOH), the “Stability constant K for block of Iota b channels” value is given as 0.39 ± 0.13 10^3 M^-1. In assay [2] (fit with Equation (2) of the titration of Figure 1, about 70 Iota b channels, 150 mM KCl, 10 mM MES, pH 6.0, 20 °C, 50 mV), the “Stability constant K of binding to Iota b channels (single titration, Figures 1 and 2)” value was 348 ± 48 M⁻¹. Moreover, in assay [2] (highest concentration reached 4.03 mM, limited by solubility), the “Block of Iota b channels reached in the titration” value is on record as “about 50%”. The Kd in assay [2] (read-out: Half saturation constant KS, Iota b channels (single titration, Figure 2), fit of the titration of Figure 1, r^2 = 0.997645) was 2900 µM.
As for `CC(=O)NCCCCNc1ccnc2cc(Cl)ccc12`, in assay [1], the “Stability constant K for block of C2II channels” value was 198 ± 15 10^3 M^-1; the Kd was 5 µM and 5.1 µM. The “Stability constant K for block of Iota b channels” value in assay [2] (150 mM KCl, 10 mM MES-KOH) is recorded as 2.5 ± 0.4 10^3 M^-1. Besides, the Kd in assay [2] (setting [7]) is 400 µM.
In the case of `CC(CCCN1C(=O)c2ccccc2C1=O)[n+]1ccc(N)c2ccc(Cl)cc21` (stereo not drawn), in assay [1], the “Stability constant K for block of C2II channels” value is 6200 ± 40 10^3 M^-1 and the Kd came to 0.16 µM. Also, the “Factor by which KS for C2IIa is smaller than that of chloroquine” value in assay [1] (KS chloroquine / KS compound, C2IIa channels) amounted to 60. Moreover, the “Cell rounding after acidic pulse with C2 toxin in presence of compound” value in assay [3] is reported as “significantly less cells were rounded”. The “Stability constant K for block of Iota b channels” value in assay [2] (150 mM KCl, 10 mM MES-KOH) is recorded as 12.5 ± 2.1 10^3 M^-1. Moreover, in assay [2] (setting [7]), the Kd is 80 µM. In assay [4], the “Factor by which KS for Iota b is higher than KS for C2IIa” value is “about 500”. Also, the “Cell rounding after acidic pulse with Iota toxin in presence of compound” value in assay [5] is “significantly less cells were rounded”.
Consider `CCN(CC)CCCC(C)Nc1ccnc2cc(Cl)ccc12` (stereo not drawn), for which, in assay [6], the “Stability constant K for block of C2II channels” value was 110000 M⁻¹. In assay [6] (read-out: Half saturation constant KS, C2II channels), the Kd is 9.1 µM.
